Experimental data from US20210269512A1 (NOVOBIND LIVESTOCK THERAPEUTICS, published 2021).

T1: Cpa (phospholipase) (Clostridium perfringens, UniProt P0C216 29-398)
T1 sequence: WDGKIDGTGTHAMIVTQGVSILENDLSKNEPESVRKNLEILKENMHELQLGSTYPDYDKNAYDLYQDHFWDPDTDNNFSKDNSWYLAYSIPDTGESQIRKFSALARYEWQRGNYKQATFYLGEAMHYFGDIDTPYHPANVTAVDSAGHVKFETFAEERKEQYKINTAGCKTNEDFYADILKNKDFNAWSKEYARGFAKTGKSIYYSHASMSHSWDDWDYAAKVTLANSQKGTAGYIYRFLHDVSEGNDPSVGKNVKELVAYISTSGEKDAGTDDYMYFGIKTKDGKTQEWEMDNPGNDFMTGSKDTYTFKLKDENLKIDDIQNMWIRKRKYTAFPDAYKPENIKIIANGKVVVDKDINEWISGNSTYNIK

B1: NBX0330 (VHH)
VHH: QVQLQESGGGLVQAGGSLRLSCAASSRTFSNYAMAWFRQTPGKEREFLATINGDTTFTIYADSVKGRFTISRDNAKNTLYLQMNSLKAEDTAVYYCAARQWNPTMRERDYGYWGQGTEVTVSS
B2: NBX0340 (VHH)
VHH: QVQLQESGGGLVQAGESLRLSCLAAGRTFSTSTLGWFRQAPGLEREFVAAIRYTSDYTARTTDYADSVKGRFAISRDYIKQAVYLQMNNLKPEDTAVYYCAAAKYGMGYSDPSGYTYWGQGTQVTVSS
B3: NBX0338 (VHH)
VHH: QVQLQESGGGLVQAGDSLRLSCATSGRSFSSYTMGWFRQTPGKEREFVAAISWSGTYYTDSVKGRFTISRDNAKNTVYLQMNSLKPEDTAVYYCAVGSRRLYYSSDINYWGQGTQVTVSS
B4: NBX0339 (VHH)
VHH: QVQLQESGGGLVQAGDSLRLSCATSGLTVSRYTMGWFRQTPGKEREFVAAISWSGTYYTDSVKGRFTISRDNAKNMVYLQMNSLKPEDTAVYYCAAGSRRLHYSSDINYWGQGTQVTVSS
B5: NBX0329 (VHH)
VHH: QVQLQESGGGLVQAGGSLRLSCATSGLTVSRYTMGWFRQTPGKDREFVAAISWSGTYYTDSVKGRFTISVDNAKNMVYLQMNSLKPEDTAVYYCAAGSRRLYYSNDINYWGQGTQVTVSS

Molecular target: T1, Cpa (phospholipase)
Test: cell-based or functional assay

B1 and B2 cannot be ordered by “Cpa lecithinase activity reduced by >40% at 1 µM” value: at most 40% for the first, at most 40% for the second.

B3 and B4 cannot be ordered by “Cpa lecithinase activity reduced by >40% at 1 µM” value: over 40% for the first, over 40% for the second.

With B5 the “Cpa lecithinase activity reduced by >40% at 1 µM” value was over 40%.
